# Reference: paper PMC11850406, “Large-scale screening of HIV-1 T-cell epitopes restricted by 12 prevalent HLA-A allotypes in Northeast Asia and universal detection of HIV-1-specific CD8^+ T cells” (Frontiers in Microbiology, 2025)
# Target: HLA-A2402 (Homo sapiens, UniProt P04439, D101N/D140Y/D185E/E176V/E190D/F33S/G103R/G107R/I119L/I121M/I306V/K335N/L105A/L180Q/L300P/N151K/N90K/Q86E/Q94H/R106L/R138H/R89G/T104I/T345S/V100E/W191G/Y123F)
# Test: cell-based
# Assay type: binding
smiles,measurement,setting,value
CC[C@H](C)[C@H](NC(=O)[C@H](CO)NC(=O)[C@@H]1CCCN1C(=O)[C@@H](NC(=O)[C@@H](NC(=O)[C@H](Cc1ccccc1)NC(=O)[C@H](C)NC(=O)[C@@H](NC(=O)[C@H](Cc1ccc(O)cc1)NC(=O)[C@@H](N)CCCCN)[C@@H](C)O)[C@@H](C)O)[C@@H](C)CC)C(=O)O [Peptide P65],IC50,,< 5 µM
same,inhibition at 5 µM,"24 h, read-out: 5-μM inhibition (%)",93.1%
same,inhibition at 15 µM,"24 h, read-out: 15-μM inhibition (%)",97.8%
